Article PMC3157426 (PLoS ONE, 2011)

Target: NWS/G70C H1N9 wild type NA (Influenza A virus, UniProt P03472)
Conditions: G70C H1N9 wt; IC50s with versus without preincubation

2-deoxy,2,3-dehydro N-acetyl neuraminic acid
binding phenotype (slow or fast binding): fast binding
